{"source": "patent US20240124533A1", "about": "“NEW HER2-BINDING POLYPEPTIDE” (AFFIBODY AB, priority 2021, published 2024)", "origin": "cited, not measured here", "molecular_target": "HER2 (Homo sapiens, UniProt P04626)", "conditions": "^99mTc-labelled; 4 h after injection; cited from earlier work"}
{"substance": "H2BPP3: HER2-binding reference polypeptide containing a C-terminal KVDC chelator (SEQ ID NO:3), ZHER2:2395 of Ahlgren et al (2009), recombinantly produced [Polypeptide H2BPP3]", "values": [{"measurement": "renal uptake", "result": "140-190 % ID/g"}]}
